In patent US20240109955A1 (published 2024):

Assays:
Assay in all cases: cell-based or functional assay
[1] = target: SARS-CoV-2 spike protein, Omicron variant (B.1.1.529) (SARS-CoV-2, UniProt P0DTC2 14-1273)
[2] = target: SARS-CoV-2 spike protein, Omicron sublineage BA.1.1 (R346K) (SARS-CoV-2, UniProt P0DTC2 14-1273)
[3] = target: SARS-CoV-2 spike (S) protein, Omicron sublineage BA.1.1 (R346K) (SARS-CoV-2, UniProt P0DTC2 14-1273)
[4] = target: SARS-CoV-2 spike (S) protein, Omicron variant B.1.1.529 (SARS-CoV-2, UniProt P0DTC2 14-1273)

B1: MX829 (bispecific antibody)
chain: DIQMTQSPSSVSASVGDRVIITCRASQGISSWLAWYQQKPGKAPKVLIYDASSLQSGVPSRFSGSGYGTDFTLTISSLQPEDSATYYCQQAKSFPITFGQGTRLEIKGGSSGEIVLTQSPGTLSLSPGERATLSCRASQSVSSSYLAWYQQKPGQAPRLLIYSASSRATGIPDRFSGSGSGTDFTLTISRLEPEDFAVYFCQQYVGLTGWTFGQGTKVEIKGGGGSGGSGSGGGGSASGSGQMQLVQSGPEVKKPGTSVKVSCKASGFTFTSSAVQWVRQRQRLEWIGWIVVGSGNTNYAQKFQERVTITRDMSTSTAYMELSSLRSEDTAVYYCAAPNCSNVVCYDGFDIWGQGTMVTVSSGGSSGQVQLVESGGGVVQPGRSLRLSCAASGFTFSSYAFHWVRQAPGKGLEWVAVISYDGSNQYYADSVKGRFTISRDNSKNTLYLQMNSLRADDTAVYYCARDLAIAVAGTWHYYNGMDVWGQGTTVTVSSASGGSGDKTHTCPPCPAPELLGGPSVFLFPPKPKDTLMISRTPEVTCVVVDVSHEDPEVKFNWYVDGVEVHNAKTKPREEQYNSYVVSVLTVLHQDWLNGKEYKCKVSNKALPAPIEKTISKAKGQPREPQVYTLPPSRDELTKNQVSLTCLVKGFYPSDIAVEWESNGQPENNYKTTPPVLDSDGSFFKKLTVDKSRWQQGNVFSCSVLHEALHSHYTQKSLSLSPG
IC50, pseudovirus neutralization [1]: 34.8 nM | IC80, pseudovirus neutralization [1]: 70.1 nM | IC50, pseudovirus neutralization [2]: 6.72 nM | IC80, pseudovirus neutralization [2]: 35.4 nM

B2: MX831 (bispecific antibody)
chain: B1 chain with V205G
IC50, pseudovirus neutralization [1]: 75.7 nM | IC80, pseudovirus neutralization [1]: 132 nM | IC50, pseudovirus neutralization [2]: 17.2 nM | IC80, pseudovirus neutralization [2]: 50 nM

B3: MX830 (bispecific antibody)
chain: QTVVTQEPSFSVSPGGTVTLTCGLSSGSVSTAYFPSWYQQTPGQAPRTLIYGTNTRSSGVPDRFSGSILGNKAALTITGAQADDESDYYCVLYMGRGIVVFGGGTKLTVLGGSSGEIVLTQSPGTLSLSPGERATLSCRASQSVSSSYLAWYQQKPGQAPRLLIYSASSRATGIPDRFSGSGSGTDFTLTISRLEPEDFAVYFCQQYGGLTGWTFGQGTKVEIKGGGGSGGSGSGGGGSASGSGQMQLVQSGPEVKKPGTSVKVSCKASGFTFTSSAVQWVRQRQRLEWIGWIVVGSGNTNYAQKFQERVTITRDMSTSTAYMELSSLRSEDTAVYYCAAPNCSNVVCYDGFDIWGQGTMVTVSSGGSSGQVQLVESGGGVVQPGRSLRLSCAASGFTLSSYGMHWVRQAPGKGLEWVAVISYDGSNKYYVDSVKGRFTISRDNSKNTLYLQMNSLRAEDTAVYYCRWAYWELLPDYYYGMDVWGQGTTVTVSSASGGSGDKTHTCPPCPAPELLGGPSVFLFPPKPKDTLMISRTPEVTCVVVDVSHEDPEVKFNWYVDGVEVHNAKTKPREEQYNSYVVSVLTVLHQDWLNGKEYKCKVSNKALPAPIEKTISKAKGQPREPQVYTLPPSRDELTKNQVSLTCLVKGFYPSDIAVEWESNGQPENNYKTTPPVLDSDGSFFKKLTVDKSRWQQGNVFSCSVLHEALHSHYTQKSLSLSPG
IC50, pseudovirus neutralization [1]: 11 nM | IC80, pseudovirus neutralization [1]: 23.5 nM | IC50, pseudovirus neutralization [2]: 10.4 nM | IC80, pseudovirus neutralization [2]: 11.5 nM

B4: MX834 (other)
chain 1: B3 chain with G208V, S632C, T644W
chain 2: B3 chain with G208V, S632C, T644W
IC50, pseudovirus neutralization [3]: 1.6 nM | IC80, pseudovirus neutralization [3]: 3.92 nM | IC50, pseudovirus neutralization [4]: 1.4 nM | IC80, pseudovirus neutralization [4]: 6.58 nM

B5: MX837 (other)
chain 1: B3 chain with G208V, S632C, T644W
chain 2: DIQMTQSPSSVSASVGDRVIITCRASQGISSWLAWYQQKPGKAPKVLIYDASSLQSGVPSRFSGSGYGTDFTLTISSLQPEDSATYYCQQAKSFPITFGQGTRLEIKGGSSGEIVLTQSPGTLSLSPGERATLSCRASQSVSSSYLAWYQQKPGQAPRLLIYSASSRATGIPDRFSGSGSGTDFTLTISRLEPEDFAVYFCQQYVGLTGWTFGQGTKVEIKGGGGSGGSGSGGGGSASGSGQMQLVQSGPEVKKPGTSVKVSCKASGFTFTSSAVQWVRQRQRLEWIGWIVVGSGNTNYAQKFQERVTITRDMSTSTAYMELSSLRSEDTAVYYCAAPNCSNVVCYDGFDIWGQGTMVTVSSGGSSGQVQLVESGGGVVQPGRSLRLSCAASGFTFSSYAFHWVRQAPGKGLEWVAVISYDGSNQYYADSVKGRFTISRDNSKNTLYLQMNSLRADDTAVYYCARDLAIAVAGTWHYYNGMDVWGQGTTVTVSSASGGSGDKTHTCPPCPAPELLGGPSVFLFPPKPKDTLMISRTPEVTCVVVDVSHEDPEVKFNWYVDGVEVHNAKTKPREEQYNSYVVSVLTVLHQDWLNGKEYKCKVSNKALPAPIEKTISKAKGQPREPQVCTLPPSRDELTKNQVSLSCAVKGFYPSDIAVEWESNGQPENNYKTTPPVLDSDGSFFLVSKLTVDKSRWQQGNVFSCSVLHEALHSHYTQKSLSLSPG
IC50, pseudovirus neutralization [3]: 9.72 nM | IC80, pseudovirus neutralization [3]: 11.4 nM | IC50, pseudovirus neutralization [4]: 2.23 nM | IC80, pseudovirus neutralization [4]: 4.45 nM

B6: MX835 (other)
chain 1: B3 chain with S632C, T644W
chain 2: EIVLTQSPGTLSLSPGERATLSCRASQSVSSSYLAWYQQKPGQAPRLLIYSASSRATGIPDRFSGSGSGTDFTLTISRLEPEDFAVYFCQQYGGLTGWTFGQGTKVEIKGGSSGDIQMTQSPSSVSASVGDRVIITCRASQGISSWLAWYQQKPGKAPKVLIYDASSLQSGVPSRFSGSGYGTDFTLTISSLQPEDSATYYCQQAKSFPITFGQGTRLEIKGGGGSGGSGSGGGGSASGSGQVQLVESGGGVVQPGRSLRLSCAASGFTFSSYAFHWVRQAPGKGLEWVAVISYDGSNQYYADSVKGRFTISRDNSKNTLYLQMNSLRADDTAVYYCARDLAIAVAGTWHYYNGMDVWGQGTTVTVSSGGSSGQMQLVQSGPEVKKPGTSVKVSCKASGFTFTSSAVQWVRQRQRLEWIGWIVVGSGNTNYAQKFQERVTITRDMSTSTAYMELSSLRSEDTAVYYCAAPNCSNVVCYDGFDIWGQGTMVTVSSASGGSGDKTHTCPPCPAPELLGGPSVFLFPPKPKDTLMISRTPEVTCVVVDVSHEDPEVKFNWYVDGVEVHNAKTKPREEQYNSYVVSVLTVLHQDWLNGKEYKCKVSNKALPAPIEKTISKAKGQPREPQVCTLPPSRDELTKNQVSLSCAVKGFYPSDIAVEWESNGQPENNYKTTPPVLDSDGSFFLVSKLTVDKSRWQQGNVFSCSVLHEALHSHYTQKSLSLSPG
IC50, pseudovirus neutralization [3]: 6.52 nM | IC80, pseudovirus neutralization [3]: 11.7 nM | IC50, pseudovirus neutralization [4]: 1.43 nM | IC80, pseudovirus neutralization [4]: 4.85 nM

Positions count from the first letter of the chain named.
